Reference: PubChem BioAssay AID1224833 (University of Georgia, 2016)
In all, the deposit lists about 12,000 reagents; below is an unselected part. About 5,600 of them (46%) count as active. 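Active calls cover z-scores past 1 in both directions, so they include lowered as well as raised rotavirus replication.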

- Assay: 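Human genes whose knock-down alters rotavirus replication in monkey cells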 (primary screen)
- Cell system: monkey MA104 kidney cells
- Knock-down reagent: siRNA pool against human genes, 50 nM
- Timing: 48 h knock-down before infection; read 24 h after infection
- Treatment: infection with rotavirus strain RV3 two days after transfection; infectious dose for this stage not given
- Measured: 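Rotavirus antigen per well by fluorescent immunoassay, normalised to non-targeting control wells on each plate and given as a standard z-score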
- Direction: z-score vs non-targeting control: higher = more rotavirus replication than with non-targeting control
- Active means: In these data the active calls have z-score vs non-targeting control at about -1 or lower, or at about 1 or higher
- Calls: active = z-score beyond 1 either way; inactive = z-score within 1 of zero

no.	Target gene	z-score vs non-targeting control	Outcome
1	ATP5IF1 (ATP synthase inhibitory factor subunit 1)	-0.959	inactive
2	BPIFB4 (BPI fold containing family B member 4)	-0.615	inactive
3	KPNA3 (karyopherin subunit alpha 3)	-2.15	active
4	MYDGF (myeloid derived growth factor)	-0.8	inactive
5	MFF (mitochondrial fission factor)	-1.21	active
6	PODN (podocan)	1.75	active
7	ZC3H12B (zinc finger CCCH-type containing 12B)	1.27	active
8	SKA3 (spindle and kinetochore associated complex subunit 3)	-0.575	inactive
9	OR13C8 (olfactory receptor family 13 subfamily C member 8)	-0.542	inactive
10	PCDHA5 (protocadherin alpha 5)	-0.434	inactive
11	MTA3 (metastasis associated 1 family member 3)	-0.123	inactive
12	TNFAIP6 (TNF alpha induced protein 6)	-0.527	inactive
13	SASH3 (SAM and SH3 domain containing 3)	-0.293	inactive
14	ZNF350 (zinc finger protein 350)	0.0444	inactive
15	ZNF91 (zinc finger protein 91)	-2.25	active
16	ACSL6 (acyl-CoA synthetase long chain family member 6)	-1.15	active
17	ZMYND12 (zinc finger MYND-type containing 12)	-0.345	inactive
18	MANBAL (mannosidase beta like)	-0.334	inactive
19	ATG5 (autophagy related 5)	-2.96	active
20	LGALS9 (galectin 9)	0.661	inactive
21	MINDY3 (MINDY lysine 48 deubiquitinase 3)	-0.323	inactive
22	OGG1 (8-oxoguanine DNA glycosylase)	-1.36	active
23	GRWD1 (glutamate rich WD repeat containing 1)	-1.01	active
24	AOX1 (aldehyde oxidase 1)	0.654	inactive
25	RBM10 (RNA binding motif protein 10)	2.34	active
26	RICTOR (RPTOR independent companion of MTOR complex 2)	1.11	active
27	ZNF615 (zinc finger protein 615)	-1.1	active
28	BEND5 (BEN domain containing 5)	-0.738	inactive
29	GLT6D1 (glycosyltransferase 6 domain containing 1)	-0.0416	inactive
30	GBP6 (guanylate binding protein family member 6)	-1.15	active
31	SUCLG1 (succinate-CoA ligase GDP/ADP-forming subunit alpha)	-0.863	inactive
32	USPL1 (ubiquitin specific peptidase like 1)	-1.5	active
33	PLEKHG4B (pleckstrin homology and RhoGEF domain containing G4B)	2.1	active
34	APOA5 (apolipoprotein A5)	-1.24	active
35	SNRPC (small nuclear ribonucleoprotein polypeptide C)	-0.924	inactive
36	CUX2 (cut like homeobox 2)	-1.19	active
37	NEUROD2 (neuronal differentiation 2)	-1.13	active
38	ART5 (ADP-ribosyltransferase 5)	0.722	inactive
39	CELSR3 (cadherin EGF LAG seven-pass G-type receptor 3)	-0.809	inactive
40	SNTB2 (syntrophin beta 2)	1.09	active
41	TMEM9B (TMEM9 domain family member B)	0.405	inactive
42	PLA2G3 (phospholipase A2 group III)	0.58	inactive
43	ASCC1 (activating signal cointegrator 1 complex subunit 1)	0.471	inactive
44	PSMC3 (proteasome 26S subunit, ATPase 3)	-1.77	active
45	RFXANK (regulatory factor X associated ankyrin containing protein)	-1.79	active
46	OR2A1 (olfactory receptor family 2 subfamily A member 1)	0.376	inactive
47	SUPT5H (SPT5 homolog, DSIF elongation factor subunit)	0.901	inactive
48	B4GALT3 (beta-1,4-galactosyltransferase 3)	0.759	inactive
49	CGN (cingulin)	-1.04	active
50	OR2B2 (olfactory receptor family 2 subfamily B member 2)	0.0781	inactive
51	CARTPT (CART prepropeptide)	1.93	active
52	DEFB115 (defensin beta 115)	-0.471	inactive
53	CC2D1A (coiled-coil and C2 domain containing 1A)	-0.979	inactive
54	CCDC62 (coiled-coil domain containing 62)	0.891	inactive
55	SSX4 (SSX family member 4)	-0.649	inactive
56	NCOA4 (nuclear receptor coactivator 4)	-0.704	inactive
57	POLR3E (RNA polymerase III subunit E)	0.917	inactive
58	GPR3 (G protein-coupled receptor 3)	-0.542	inactive
59	TPGS2 (tubulin polyglutamylase complex subunit 2)	-0.226	inactive
60	C3orf62 (chromosome 3 open reading frame 62)	1.01	active
61	LSM6	0.754	inactive
62	IFT140 (intraflagellar transport 140)	-0.559	inactive
63	SIGLEC9 (sialic acid binding Ig like lectin 9)	0.641	inactive
64	DDX31 (DEAD-box helicase 31)	-2.41	active
65	TM7SF3 (transmembrane 7 superfamily member 3)	-1.17	active
66	ASF1B (anti-silencing function 1B histone chaperone)	0.0522	inactive
67	STX6 (syntaxin 6)	0.388	inactive
68	PRAMEF6 (PRAME family member 6)	-0.664	inactive
69	CD177 (CD177 molecule)	0.828	inactive
70	ZNF598 (zinc finger protein 598, E3 ubiquitin ligase)	-1.08	active
71	IDE (insulin degrading enzyme)	0.809	inactive
72	OR1C1 (olfactory receptor family 1 subfamily C member 1)	0.817	inactive
73	MAP1LC3A (microtubule associated protein 1 light chain 3 alpha)	-0.0788	inactive
74	CSRNP1 (cysteine and serine rich nuclear protein 1)	-0.932	inactive
75	CTNNAL1 (catenin alpha like 1)	0.594	inactive
76	ITGAX (integrin subunit alpha X)	-2.54	active
77	RCOR2 (REST corepressor 2)	-1.05	active
78	MLNR (motilin receptor)	-0.688	inactive
79	BMP2 (bone morphogenetic protein 2)	-0.818	inactive
80	ELOA (elongin A)	-2	active
81	TMED3 (transmembrane p24 trafficking protein 3)	0.243	inactive
82	CXorf38 (chromosome X open reading frame 38)	0.814	inactive
83	PRB1 (proline rich protein BstNI subfamily 1)	-0.689	inactive
84	SLC67A2	-1.16	active
85	PLA2G2E (phospholipase A2 group IIE)	1.06	active
86	VPS36 (vacuolar protein sorting 36 homolog)	1.75	active
87	INTS13 (integrator complex subunit 13)	2.28	active
88	C9orf40 (chromosome 9 open reading frame 40)	-1.61	active
89	LRG1 (leucine rich alpha-2-glycoprotein 1)	-1.1	active
90	DLX4 (distal-less homeobox 4)	-0.525	inactive
91	MMP9 (matrix metallopeptidase 9)	1.45	active
92	ATE1 (arginyltransferase 1)	1.76	active
93	ZNF823 (zinc finger protein 823)	-1.14	active
94	SLC41A1	1.37	active
95	RERGL (RERG like)	-0.532	inactive
96	LAMTOR1 (late endosomal/lysosomal adaptor, MAPK and MTOR activator 1)	1.39	active
97	HEMGN (hemogen)	-0.371	inactive
98	GDI1 (GDP dissociation inhibitor 1)	0.632	inactive
99	UBD (ubiquitin like modifier D)	-1.04	active
100	BKGD (beta-keto-L-gulonate decarboxylase)	-1.1	active
101	SLC39A1	-1.61	active
102	HS1BP3 (HCLS1 binding protein 3)	1.51	active
103	TTLL2 (tubulin tyrosine ligase like 2)	0.367	inactive
104	MRRF (mitochondrial ribosome recycling factor)	2.48	active
105	FAM50A (family with sequence similarity 50 member A)	-1.26	active
106	IFFO2 (intermediate filament family orphan 2)	1.13	active
107	CRYAA (crystallin alpha A)	0.844	inactive
108	DAPP1 (dual adaptor of phosphotyrosine and 3-phosphoinositides 1)	-1.77	active
109	SPRR2B (small proline rich protein 2B)	-0.713	inactive
110	LAMTOR2 (late endosomal/lysosomal adaptor, MAPK and MTOR activator 2)	0.603	inactive
111	P2RY11 (purinergic receptor P2Y11)	0.947	inactive
112	TMEM150C (transmembrane protein 150C)	2.37	active
113	IFNG (interferon gamma)	-1.36	active
114	PSMD8 (proteasome 26S subunit, non-ATPase 8)	1.01	active
115	ABCB10 (ATP binding cassette subfamily B member 10)	-1.23	active
116	PSMD1 (proteasome 26S subunit, non-ATPase 1)	-4.39	active
117	MRAP2 (melanocortin 2 receptor accessory protein 2)	-0.434	inactive
118	DEFB113 (defensin beta 113)	-0.984	inactive
119	C1orf54 (chromosome 1 open reading frame 54)	0.0819	inactive
120	DEFB104B (defensin beta 104B)	0.26	inactive
121	IRX1 (iroquois homeobox 1)	-1.41	active
122	RUVBL2 (RuvB like AAA ATPase 2)	1.03	active
123	NDEL1 (nudE neurodevelopment protein 1 like 1)	-0.583	inactive
124	FXR1 (FMR1 autosomal homolog 1)	1	inactive
125	SCIMP (SLP adaptor and CSK interacting membrane protein)	-2.03	active
126	LYPD6 (LY6/PLAUR domain containing 6)	1.25	active
127	GAD1 (glutamate decarboxylase 1)	0.97	inactive
128	TMEM121B (transmembrane protein 121B)	-0.251	inactive
129	ANKFN1 (ankyrin repeat and fibronectin type III domain containing 1)	0.7	inactive
130	GPATCH8 (G-patch domain containing 8)	1.66	active
131	NKX3-1 (NK3 homeobox 1)	0.657	inactive
132	LAMP1 (lysosome associated membrane protein 1)	-1.09	active
133	ADNP (activity dependent neuroprotector homeobox)	0.0162	inactive
134	BAIAP2L1 (BAR/IMD domain containing adaptor protein 2 like 1)	-0.979	inactive
135	ODC1 (ornithine decarboxylase 1)	-3.46	active
136	KDM1A (lysine demethylase 1A)	-0.513	inactive
137	KIAA0930	-0.987	inactive
138	MID1IP1 (MID1 interacting protein 1)	1.77	active
139	GLIPR2 (GLI pathogenesis related 2)	-0.545	inactive
140	TRAF3IP3 (TRAF3 interacting protein 3)	-0.306	inactive
